Here are results for two compounds from patent publication US20210196816A1, “ALGAE COMPRISING THERAPEUTIC AND/OR NUTRITIONAL AGENTS” (TomAlgae CVBA, priority 2016, published 2021).

The subject of the data set is algae cells. Kind of data set: Loading of freeze-dried algae with glycine, glucose or vitamin B1 by rehydration; residual levels after washing. Also noted: species or system Cyclotella meneghiniana. The note with it: for Amount of amino acids in algae preparations: mean ± SD (n = 3), ninhydrin, after washing; for fold higher amount of vitamin B1 vs algae rehydrated without vitamin B1: 28 mM vitamin B1 in distilled water vs distilled water.

`NCC(=O)O` [glycine]: under “28 mM glycine in distilled water vs distilled water”, the “fold higher amount of glycine vs algae rehydrated without glycine” value was 1.3 fold. For the same compound, the “fold-difference in amount of glycine vs algae rehydrated without glycine” value (28 mM glycine in sea water vs sea water) worked out at 1.9 fold. Moreover, for the setting “28 mM solutions, either distilled water or sea water”, the “enrichment of algae preparations relatively to pure water” value is given as “about 2 fold”. In addition, the “Amount of amino acids in algae preparations” value came to 2.69 ± 0.46 mg/g dry weight (Distilled water + 28 mM glycine) and 2.64 ± 0.18 mg/g dry weight (Sea water + 28 mM glycine).

As to `Cc1ncc(C[n+]2csc(CCO)c2C)c(N)n1` [vitamin B1, thiamine], the “fold higher amount of vitamin B1 vs algae rehydrated without vitamin B1” value came to 10.1 fold. Also, the “fold higher amount of vitamin B1 vs algae rehydrated without vitamin B1” value (listed as Vitamin B1) is given as 10 fold.
